Publication PMC9305947 (Angewandte Chemie (International Ed. in English), 2022)
HELM strings list residues between dots; [ac] is acetyl, [am] amide, other brackets name non-standard units.

Assay: general procedure: Fmoc solid-phase peptide synthesis; Sieber amide resin; 2-chlorotrityl polystyrene resin; DIC/COMU and OxymaPure
Conditions: for final LC-MS purity: HPLC-MS

Substance | isolated yield (whole synthesis) | final LC-MS purity (whole synthesis) | final LC-MS purity (cyclisation step) | cyclisation yield (cyclisation step, from cyclization step) | isolated yield (whole synthesis, overall)
PEPTIDE1{F.V.Q.W.F.S.K.F.L.G.K.I.L.[am]}$$$$V2.0 | 10% yield | 99% purity | – | – | –
PEPTIDE1{P.F.K.I.S.I.H.L.[am]}$$$$V2.0 | 50% yield | 98% purity | – | – | –
PEPTIDE1{P.F.K.I.S.I.H.L}$PEPTIDE1,PEPTIDE1,1:R1-8:R2$$$V2.0 | – | – | > 99% purity | 26% yield from cyclization step | –
PEPTIDE1{W.F.K.I.I.K.K.[am]}$$$$V2.0 | 9% yield | 95% purity | – | – | –
PEPTIDE1{P.[Trp(tetramethyl-BODIPY)].K.I.S.I.H.L.[am]}$$$$V2.0 | 27% yield | > 99% purity | – | – | –
PEPTIDE1{P.[Phe(pMP-BODIPY)].K.I.S.I.H.L.[am]}$$$$V2.0 | – | 99% purity | – | – | 26% yield
